Results as given in article PMC6952414 (Nature Communications, 2020).

Tested on: trypsin
Test: Resistance to cleavage by trypsin
Settings: Supplementary Fig. 3

CSCC[C@H](N)C(=O)N[C@@H](C)C(=O)N[C@@H](CCCNC(=N)N)C(=O)N[C@@H](CCCNC(=N)N)C(=O)N1CCC[C@H]1C(=O)N[C@H](C(=O)N[C@@H](CC(N)=O)C(=O)N[C@@H](Cc1c[nH]cn1)C(=O)N[C@@H](Cc1ccccc1)C(=O)N[C@@H](C)C(=O)NCCCCCC(=O)NCCCC[C@H](NC(=O)CCCCCNC(=O)[C@H](C)NC(=O)[C@H](Cc1ccccc1)NC(=O)[C@H](Cc1c[nH]cn1)NC(=O)[C@H](CC(N)=O)NC(=O)[C@@H](NC(=O)[C@@H]1CCCN1C(=O)[C@H](CCCNC(=N)N)NC(=O)[C@H](CCCNC(=N)N)NC(=O)[C@H](C)NC(=O)[C@@H](N)CCSC)C(C)C)C(=O)NCCCC[C@H](NC(=O)[C@H](CCCCNC(=O)CCCCCNC(=O)[C@H](C)NC(=O)[C@H](Cc1ccccc1)NC(=O)[C@H](Cc1c[nH]cn1)NC(=O)[C@H](CC(N)=O)NC(=O)[C@@H](NC(=O)[C@@H]1CCCN1C(=O)[C@H](CCCNC(=N)N)NC(=O)[C@H](CCCNC(=N)N)NC(=O)[C@H](C)NC(=O)[C@@H](N)CCSC)C(C)C)NC(=O)CCCCCNC(=O)[C@H](C)NC(=O)[C@H](Cc1ccccc1)NC(=O)[C@H](Cc1c[nH]cn1)NC(=O)[C@H](CC(N)=O)NC(=O)[C@@H](NC(=O)[C@@H]1CCCN1C(=O)[C@H](CCCNC(=N)N)NC(=O)[C@H](CCCNC(=N)N)NC(=O)[C@H](C)NC(=O)[C@@H](N)CCSC)C(C)C)C(N)=O)C(C)C [PVF-tet]
resistance to trypsin (in words): easily cleaved by trypsin
